Experimental findings from paper PMC6010014 are described below.

Assay [1] concerns the target T1, HIV-1 wt RT (HIV-1 Reverse Transcriptase; RNase H and RDDP functions) (HIV-1 M:B_HXB2R, UniProt P04585). The experiment in a line: RNase H, fluorescein/Dabcyl RNA/DNA hybrid cleavage. Conditions: RNase H function, 250 nM RNA/DNA hybrid, 6 mM MgCl2, 80 mM KCl, 1 mM DTT, pH 7.8, 37 °C. From the text: RNase H, fluorescein/Dabcyl RNA/DNA hybrid cleavage on HIV-1 wt RT (HIV-1 Reverse Transcriptase; RNase H and RDDP functions)

Assay [2] deals with T1, HIV-1 wt RT (HIV-1 Reverse Transcriptase; RNase H and RDDP functions). The experiment in a line: RNA-dependent DNA polymerase, picogreen fluorescence. Conditions: RDDP function, 2.5 µM poly(A)-oligo(dT), 100 µM dTTP, 8 mM MgCl2, 60 mM KCl, 13 mM DTT, pH 8.1, 37 °C. The source says: RNA-dependent DNA polymerase, picogreen fluorescence on HIV-1 wt RT (HIV-1 Reverse Transcriptase; RNase H and RDDP functions)

[3] abbreviates: read-out: [drawing 1] / RNase H - IC50.
Setting [4] is: read-out: [drawing 1] / RDDP - IC50.

With `Cn1c(-c2ccc(F)cc2F)csc1=NN=C1C(=O)Nc2ccc(Cl)cc21`, the IC50 in assay [1] (read-out: RNase H - IC50) was found to be 21 µM; in assay [2] (read-out: RDDP - IC50), 54 µM. Regarding `Cn1c(-c2ccccc2)csc1=NN=C1C(=O)Nc2ccccc21`, the IC50 in assay [1] (setting [3]) was 19.9 µM; in assay [2] (setting [4]), 15 µM. Taken in the same sequence, the figures for `Cn1c(-c2cccc([N+](=O)[O-])c2)csc1=NN=C1C(=O)Nc2ccccc21` were 24 µM and 69 µM. Taken in the same sequence, the figures for `Cn1c(-c2ccc(F)cc2F)csc1=NN=C1C(=O)Nc2ccccc21` were 12.5 µM and 30 µM.

Consider `Cn1c(-c2ccc(-c3ccccc3)cc2)csc1=NN=C1C(=O)Nc2ccc(Cl)cc21`, for which the IC50 in assay [1] (read-out: RNase H - IC50) turned out to be 10 µM; in assay [2] (read-out: RDDP - IC50), 9.5 µM. Consider `Cn1c(-c2ccc(F)cc2)csc1=NN=C1C(=O)Nc2ccccc21`, for which the results for the IC50 in assay [1] (setting [3]) and in assay [2] (setting [4]) were 28 µM and 30 µM, respectively. For `Cn1c(-c2ccc(Br)cc2)csc1=NN=C1C(=O)Nc2ccccc21`, in that order: 29 µM and 100 µM. Regarding `Cn1c(-c2ccc(C#N)cc2)csc1=NN=C1C(=O)Nc2ccc(Cl)cc21`, the IC50 in assay [1] (read-out: RNase H - IC50) amounted to 27 µM; in assay [2] (read-out: RDDP - IC50), 28 µM. Turning to `Cn1c(-c2ccc([N+](=O)[O-])cc2)csc1=NN=C1C(=O)Nc2ccc(Cl)cc21`, the IC50 in assay [1] (read-out: RNase H - IC50) came to 21 µM; in assay [2] (read-out: RDDP - IC50), 26 µM. On to `Cn1c(-c2ccc([N+](=O)[O-])cc2)csc1=NN=C1C(=O)Nc2ccccc21`, for which the values for the IC50 in assay [1] (setting [3]) and in assay [2] (setting [4]) were 17.2 µM and 15.6 µM, respectively. On to `Cc1ccc(-c2csc(=NN=C3C(=O)Nc4ccccc43)n2C)cc1`, for which the IC50 was 15.9 µM in assay [1] (setting [3]) and 29 µM in assay [2] (setting [4]).

In the case of `COc1ccc(-c2csc(=NN=C3C(=O)Nc4ccccc43)n2C)cc1`, the IC50 in assay [1] (setting [3]) came out at 27 µM; in assay [2] (setting [4]), 17.9 µM. Taken in the same sequence, the figures for `Cn1c(-c2ccc(Cl)c(Cl)c2)csc1=NN=C1C(=O)Nc2ccccc21` were 24 µM and 50 µM. As for `Cn1c(-c2ccccc2)csc1=NN=C1C(=O)Nc2ccc(Cl)cc21`, the results for the IC50 in assay [1] (read-out: RNase H - IC50) and in assay [2] (read-out: RDDP - IC50) were 25 µM and 100 µM, respectively. Regarding `Cn1c(-c2ccc(Cl)cc2Cl)csc1=NN=C1C(=O)Nc2ccccc21`, the IC50 in assay [1] (setting [3]) amounted to 15 µM; in assay [2] (setting [4]), 19.6 µM. Take `Cn1c(-c2ccc(Cl)cc2)csc1=NN=C1C(=O)Nc2ccccc21`: the IC50 turned out to be 17.5 µM in assay [1] (setting [3]) and 24 µM in assay [2] (setting [4]).

As to `Cn1c(-c2ccc(Br)cc2)csc1=NN=C1C(=O)Nc2ccc(Cl)cc21`, the values for the IC50 in assay [1] (read-out: RNase H - IC50) and in assay [2] (read-out: RDDP - IC50) were 23 µM and 34 µM, respectively. Regarding `Cn1c(-c2ccc(Cl)cc2)csc1=NN=C1C(=O)Nc2ccc(Cl)cc21`, the IC50 in assay [2] (read-out: RDDP - IC50) came to 39 µM. Take `Cn1c(-c2ccc(C#N)cc2)csc1=NN=C1C(=O)Nc2ccccc21`: the IC50 stood at 21 µM in assay [1] (setting [3]) and 27 µM in assay [2] (setting [4]). As for `Cn1c(-c2ccc(F)cc2)csc1=NN=C1C(=O)Nc2ccc(Cl)cc21`, the figures for the IC50 in assay [1] (read-out: RNase H - IC50) and in assay [2] (read-out: RDDP - IC50) were 18.9 µM and 31 µM, respectively.

With `Cn1c(-c2ccc(Cl)c(Cl)c2)csc1=NN=C1C(=O)Nc2ccc(Cl)cc21`, the figures for the IC50 in assay [1] (read-out: RNase H - IC50) and in assay [2] (read-out: RDDP - IC50) were 16.7 µM and 98 µM, respectively. For `COc1ccc(-c2csc(=NN=C3C(=O)Nc4ccc(Cl)cc43)n2C)cc1`, in that order: 15.1 µM and 28 µM.

Regarding `Cn1c(-c2cccc([N+](=O)[O-])c2)csc1=NN=C1C(=O)Nc2ccc(Cl)cc21`, the values for the IC50 in assay [1] (read-out: RNase H - IC50) and in assay [2] (read-out: RDDP - IC50) were 17.5 µM and 60 µM, respectively. As to `Cn1c(-c2ccc(-c3ccccc3)cc2)csc1=NN=C1C(=O)Nc2ccccc21`, the IC50 turned out to be 25 µM in assay [1] (setting [3]) and 35 µM in assay [2] (setting [4]).

Regarding `Cc1ccc(-c2csc(=NN=C3C(=O)Nc4ccc(Cl)cc43)n2C)cc1`, the IC50 in assay [1] (read-out: RNase H - IC50) was 19 µM; in assay [2] (read-out: RDDP - IC50), 85 µM.
